In PMC8121815 (Nature Communications, 2021):
“Also recorded” adds a separate entry of the source.

Assays:
[1] = target: hTOM70/N-peptide complex (human); test: ITC
[2] = test system: hTOM70 ΔN3 (235–608); format: binding, human
[3] = test system: hTOM70 ΔN1 (60–608); format: binding, human
[4] = test system: Hsp90/TOM70 interaction; format: binding, human
[5] = test system: hTOM70 ΔN2 (106–608); format: binding, human
[6] = test system: hTOM70; format: binding, human

Row | Substance | Kd [1] | co-elution (complex formation) [2] | co-elution (complex formation) [3] | effect on binding of EEVD motif / N-peptide to hTOM70 [4] | co-elution (complex formation) [5] | complex formation [6]
1 | C-peptide (SARS-CoV-2 orf9b core sequence 44-70) (from UniProt P0DTD2 44-70) | 420 nM | – | – | – | – | –
2 | SARS-CoV-2 orf9b: 98-amino acid accessory protein of SARS-CoV-2; homodimeric alone, helical when bound to TOM70 | – | co-eluted with SARS-CoV-2 orf9b | co-eluted with SARS-CoV-2 orf9b | allosterically inhibits substrate binding at the NTD-pocket; also recorded: severely disrupts binding of the EEVD motif at the NTD-pocket | co-eluted with SARS-CoV-2 orf9b | did not yield a complex
